Measured values from patent publication US20120088662A1, “FUNGICIDAL MIXTURES” (BASF SE, priority 2009, published 2012).

Test system: Pyricularia oryzae
Type: cell-based
Settings: 31 ppm, measured at 405 nm on day 7 after inoculation, active compound-free control =100%

CCSc1ncnn1C[C@]1(c2ccc(F)cc2)O[C@H]1c1ccccc1Cl (relative stereo) [I-18, trans-1-[3-(2-chlorophenyl)-2-(4-fluorophenyl)oxiranylmethyl]-5-ethylsulfanyl-1H-[1,2,4]triazole]
growth (relative growth in % of the pathogens): 8%
